{"source": "paper PMC10619133", "about": "“The catechol moiety of obafluorin is essential for antibacterial activity” (RSC Chemical Biology, 2023)", "key": {"[1]": {"experiment": "4-(2-Pyridylazo)-resorcinol (PAR) Zn2+ binding assay", "details": "molar ratios 0.5-25 compound : Zn^2+"}, "[2]": {"experiment": "Metal binding by ESI-HRMS"}, "[3]": {"experiment": "Chrome azurol S (CAS) Fe3+ binding assay"}}, "data": [{"compound": "c1ccc(CN(CCN(Cc2ccccn2)Cc2ccccn2)Cc2ccccn2)nc1", "note": "[TPEN, N,N,N′,N′-tetrakis(2-pyridinylmethyl)-1,2-ethanediamine, reference compound]", "values": [{"measurement": "Zn^2+ binding, displacement of PAR from Zn(PAR)2 (in words)", "setting": "[1]", "result": "completely displaced PAR at molar ratios of >1"}]}, {"compound": "O=C(N[C@@H]1C(=O)O[C@@H]1Cc1ccc([N+](=O)[O-])cc1)c1cccc(O)c1O", "note": "[compound 1, Obafluorin]", "values": [{"measurement": "metal binding by ESI-HRMS (mass shift)", "setting": "[2]; +Fe^2+ (1 mM)", "result": "No mass shift"}, {"measurement": "metal binding by ESI-HRMS (mass shift)", "setting": "[2]; +Fe^3+ (1 mM), compound 100 μg mL^−1", "result": "strong, selective interaction"}, {"measurement": "metal binding by ESI-HRMS (mass shift)", "setting": "[2]; +Ga^3+ (1 mM)", "result": "No mass shift"}, {"measurement": "metal binding by ESI-HRMS (mass shift)", "setting": "[2]; +Mg^2+ (1 mM)", "result": "No mass shift"}, {"measurement": "metal binding by ESI-HRMS (mass shift)", "setting": "[2]; +Mn^2+ (1 mM)", "result": "a peak consistent with a [M − H + Mn^2+]^+ species"}, {"measurement": "metal binding by ESI-HRMS (mass shift)", "setting": "[2]; +Zn^2+ (1 mM)", "result": "No mass shift"}, {"measurement": "metal binding by ESI-HRMS (species observed)", "setting": "[2]; mixture of all metal ions tested", "result": "only the [M − 2H + Fe^3+]^+ ion was observed"}, {"measurement": "Zn^2+ binding, displacement of PAR from Zn(PAR)2 (in words)", "setting": "[1]", "result": "some weak Zn^2+ binding"}, {"measurement": "Fe^3+ binding, CAS colour change blue to orange (in words)", "setting": "[3]", "result": "strong ferric iron binding"}]}, {"compound": "O=C(N[C@@H]1C(=O)O[C@@H]1Cc1ccc([N+](=O)[O-])cc1)c1ccccc1O", "note": "[compound 2, 2-HBA-obafluorin]", "values": [{"measurement": "Fe^3+ binding, CAS colour change blue to orange (in words)", "setting": "[3]", "result": "abolishes"}]}, {"compound": "O=C(N[C@@H]1C(=O)O[C@@H]1Cc1ccc([N+](=O)[O-])cc1)c1cccc(O)c1", "note": "[compound 3, 3-HBA-obafluorin]", "values": [{"measurement": "Fe^3+ binding, CAS colour change blue to orange (in words)", "setting": "[3]", "result": "abolishes"}]}, {"compound": "O=C(N[C@@H]1C(=O)O[C@@H]1Cc1ccc([N+](=O)[O-])cc1)c1ccccc1", "note": "[compound 4, BA-obafluorin]", "values": [{"measurement": "Fe^3+ binding, CAS colour change blue to orange (in words)", "setting": "[3]", "result": "abolishes"}]}, {"compound": "O=C(N[C@H](C(=O)O)[C@H](O)Cc1ccc([N+](=O)[O-])cc1)c1cccc(O)c1O", "note": "[compound 5, β-lactone hydrolysed obafluorin]", "values": [{"measurement": "Fe^3+ binding, CAS colour change blue to orange (in words)", "setting": "[3]", "result": "much more pronounced than with 2,3-DHBA alone"}]}, {"compound": "COC(=O)[C@@H](NC(=O)c1cccc(O)c1O)[C@H](O)Cc1ccc([N+](=O)[O-])cc1", "note": "[compound 6, β-lactone methanolysed obafluorin]", "values": [{"measurement": "Fe^3+ binding, CAS colour change blue to orange (in words)", "setting": "[3]", "result": "much more pronounced than with 2,3-DHBA alone"}]}]}
